# Source: patent US8937167B2 (Washington University, priority 2009, dated 2015)
# Sequences of proteins named here, by UniProt entry; tags and fusion partners are left off. Residues count along the entry.
# UniProt Q1R2J4, 20-300 limits assumed: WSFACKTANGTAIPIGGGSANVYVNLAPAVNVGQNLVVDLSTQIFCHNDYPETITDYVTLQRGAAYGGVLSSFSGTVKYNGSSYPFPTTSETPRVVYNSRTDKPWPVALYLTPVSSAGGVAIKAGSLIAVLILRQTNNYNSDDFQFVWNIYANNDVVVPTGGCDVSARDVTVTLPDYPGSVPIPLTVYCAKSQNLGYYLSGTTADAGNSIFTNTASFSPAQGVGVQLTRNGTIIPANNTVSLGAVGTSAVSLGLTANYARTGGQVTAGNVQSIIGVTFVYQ
# UniProt P08191, 22-179 limits assumed: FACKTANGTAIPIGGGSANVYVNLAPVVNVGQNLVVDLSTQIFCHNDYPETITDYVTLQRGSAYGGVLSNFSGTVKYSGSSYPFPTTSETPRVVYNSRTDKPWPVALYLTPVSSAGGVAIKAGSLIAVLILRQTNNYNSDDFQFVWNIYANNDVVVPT
# Assays:
# [1] = biological target: FimH (Escherichia coli, UniProt Q1R2J4); settings: Table 20; Examples 30-36 numbering;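 further: hemagglutination inhibition of guinea pig erythrocytes agglutinated by type 1 piliated uropathogenic E. coli via FimH mannose binding, quantified through serial dilutions of compound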
# [2] = biological target: FimH lectin domain (residues 1-158 of UPEC J96 FimH) (Escherichia coli, UniProt P08191); settings: Table 20; compound at 100 μM
Structure (SMILES),HAI Titer EC>90 [1] [µM],DSF Melting Temp. [2] [°C]
NC(=O)c1cccc(-c2ccc(O[C@H]3O[C@H](CO)[C@@H](O)[C@H](O)[C@@H]3O)cc2)c1,2.000,71.69
CS(=O)(=O)Nc1cccc(-c2ccc(O[C@H]3O[C@H](CO)[C@@H](O)[C@H](O)[C@@H]3O)cc2)c1,2.000,70.90
COC(=O)c1cc(O[C@H]2O[C@H](CO)[C@@H](O)[C@H](O)[C@@H]2O)cc(C(=O)OC)c1,2.000,73.25

# The match of structure and compound is tentative.
